Results of unrelated studies side by side (data: NIAID ChemDB).

All rows: tests in culture; agent: HIV-1; read-out: EC90

Two numbers with a dash give a range or band. ECn: concentration that inhibits the pathogen or its effect by n%. Lines come from different laboratories, so protocols vary. An empty or dashed field is not shown.

smiles | read by | setting | strain or isolate | cell line | mutations | value
Nc1ncnc2c1ncn2[C@H]1OC[C@@](F)(C=CP(=O)(O)O)[C@H]1F | MTT |  | LAI | PBMC |  | 90 µM
CC(C)(C)NC(=O)[C@@H]1C[C@@H]2CCCC[C@@H]2CN1C[C@@H](O)[C@H](Cc1ccccc1)NC(=O)[C@H](CC(N)=O)NC(=O)c1ccc2ccccc2n1 | RT activity |  | Subtype B isolate | PBMC |  | 0.019 µM
Cc1c(O)cccc1C(=O)N[C@@H](CSc1ccccc1)[C@H](O)CN1C[C@H]2CCCC[C@H]2C[C@H]1C(=O)NC(C)(C)C | cytopathic effect / MTT |  | IIIB | MT-4 |  | 0.024 µg/mL
Nc1ccn([C@H]2O[C@@H](CO)C=C2F)c(=O)n1 |  |  | xxBRU | PBMC |  | 2.1 µM
CC(C)[C@H](NC(=O)N(C)Cc1ccccn1)C(=O)N[C@@H](Cc1ccccc1)[C@H](O)[C@H](O)[C@H](Cc1ccccc1)NC(=O)[C@@H](NC(=O)N(C)Cc1ccccn1)C(C)C | cytopathic effect / trypan blue |  | IIIB | ATH8 |  | 4 µM
CCCCCCCCC#Cc1cn(C/C=C/C(O)CO)c(=O)[nH]c1=O | RT activity |  | LAI | PBMC |  | >100 µM
O=C1N(Cc2ccccc2)[C@H](Cc2c[nH]c3ccccc23)[C@H](O)[C@@H](O)[C@@H](Cc2c[nH]c3ccccc23)N1Cc1ccccc1 | hybridisation |  | RF | MT-2 |  | >10 µM
O=C1N(Cc2ccc(CO)cc2)[C@H](Cc2ccccc2)[C@H](O)[C@@H](O)[C@@H](Cc2ccccc2)N1Cc1ccc(CO)cc1 | plaque count / virus yield |  | RF | MT-2 |  | 0.07 µg/mL
Cc1ccnc2c1NC(=O)c1cccnc1N2C1CC1 | cytopathic effect / MTT |  | IIIB | MT-4 |  | 0.26 µM
COC(=O)[C@H](C)NP(=O)(OC[C@@H]1CC[C@H](n2cnc3c(N)ncnc32)O1)Oc1ccccc1 | antigen |  | BaL | MM + M/M |  | 0.02 µM
CCC[C@@H](c1ccc(C(F)(F)F)cc1)N1CCN(C2(C)CCN(C(=O)c3c(C)ncnc3C)CC2)C[C@@H]1C |  |  | ADA-M Clinical isolates | PBMC |  | 0.00003 µM
CCn1nc(Cc2ccc(C#N)cc2)cc1C1CCN(C[C@H]2CN([C@@H](C(=O)O)C(C)(C)C)C[C@@H]2c2cccc(F)c2)CC1 | β-galactosidase |  | BaL | HeLa |  | <0.00014 µM
Cc1cn([C@H]2C[C@H](N=[N+]=[N-])[C@@H](CO)O2)c(=O)[nH]c1=O | p24 |  | 477 clinical isolates delavirdine-resistant | PBMC |  | <0.3 µM
CC[C@H](C)[C@H](C(=O)O)N1C[C@H](CN2CCC(c3cc(Cc4ccc5ccccc5c4)nn3CC)CC2)[C@@H](c2cccc(F)c2)C1 | β-galactosidase |  | BaL | HeLa |  | <0.00014 µM
Cc1cn([C@H]2C[C@H](N=[N+]=[N-])[C@@H](CO)O2)c(=O)[nH]c1=O | p24 / ELISA |  | BaL | PBMC |  | 0.128 µM
CCCCCCCCc1cc2cn(CC=C(CO)CO)c(=O)nc2o1 | RT activity |  | LAI | PBMC |  | 39 µM
CC(C)=CCN1Cc2cc(Cl)cc3[nH]c(=S)n(c23)C[C@@H]1C | cytopathic effect / XTT |  | IIIB | MT-4 |  | 0.65 µM
O=C1N(Cc2ccc(CO)cc2)[C@H](Cc2ccncc2)[C@H](O)[C@@H](O)[C@@H](Cc2ccncc2)N1Cc1ccc(CO)cc1 | hybridisation |  | RF | MT-2 |  | 10 µM
CC(C)Nc1cccnc1N1CCN(C(=O)c2cc3cc(NS(C)(=O)=O)ccc3[nH]2)CC1 | p24 |  | 472 clinical isolates AZT-resistant | PBMC |  | >10 µM
C[C@@H]1[C@H](O)[C@@H](O)[C@@H](C)N(Cc2ccccc2)C(=O)N1Cc1ccccc1 | hybridisation |  | RF | MT-2 |  | >10 µM
Cc1cn([C@H]2C[C@H](N=[N+]=[N-])[C@@H](CO)O2)c(=O)[nH]c1=O | cytopathic effect / p24 / trypan blue |  | IIIB | MT-4 |  | 0.37 µM
CCn1nc(Cc2ccc(O)cc2)cc1C1CCN(C[C@H]2CN([C@@H](C(=O)O)C(C)(C)C)C[C@@H]2c2cccc(F)c2)CC1 | β-galactosidase | 50% human serum | BaL | HeLa |  | 0.011 µM
COC(=O)[C@H](C)NP(=O)(OC[C@H]1O[C@@H](n2cc(C)c(=O)[nH]c2=O)C[C@@H]1N=[N+]=[N-])Oc1ccccc1 | antigen |  | BaL | MM + M/M |  | 0.1 µM
CC(C)C[C@@H]1[C@H](O)[C@@H](O)[C@@H](CC(C)C)N(Cc2ccc(CO)cc2)C(=O)N1Cc1ccc(CO)cc1 | hybridisation |  | RF | MT-2 |  | >10 µM
COC(=O)[C@H](C)NP(=O)(OC[C@@H]1C=C[C@H](n2cnc3c(N)ncnc32)O1)Oc1ccccc1 | antigen |  | BaL | MM + M/M |  | 0.03 µM
CCn1nc(Cc2ccc(C)cc2)cc1C1CCN(C[C@H]2CN([C@@H](C(=O)O)C(C)(C)C)C[C@@H]2c2cccc(F)c2)CC1 | β-galactosidase |  | BaL | HeLa |  | <0.00014 µM
CCc1cc(NCc2nc3c(Cl)ccc(Cl)c3o2)c(=O)[nH]c1C | cytopathic effect / XTT |  | IIIB | MT-4 |  | 0.38 µM
O=C(Nc1cc(S(=O)(=O)O)cc2cc(S(=O)(=O)O)c(N=Nc3ccc(N=Nc4c(S(=O)(=O)O)cc5cc(S(=O)(=O)O)cc(NC(=O)c6cccc(Cl)c6Cl)c5c4O)cc3)c(O)c12)c1ccc(Cl)cc1Cl |  |  | A018A | MT-2 |  | 3.16–5.53 µg/mL
CC(C)(C)NC(=O)[C@@H]1CN(Cc2cccnc2)CCN1C[C@@H](O)C[C@@H](Cc1ccccc1)C(=O)N[C@H]1c2ccccc2C[C@H]1O | RT activity |  | LAI | PBL |  | 0.034 µM
O=C1N(Cc2ccc(OCc3ccccc3)cc2)[C@H](Cc2ccccc2)[C@H](O)[C@@H](O)[C@@H](Cc2ccccc2)N1Cc1ccc(OCc2ccccc2)cc1 | hybridisation |  | RF | MT-2 |  | >70 µM
O=C1N(Cc2ccc(CO)cc2)[C@H](Cc2ccccc2)[C@H](O)[C@@H](O)[C@@H](Cc2ccccc2)N1Cc1ccc(CO)cc1 | p24 |  | IIIB | PBMC |  | 0.05 µM
Cc1cn([C@H]2C=C[C@@H](CO)O2)c(=O)[nH]c1=O | antigen |  | BaL | MM + M/M |  | 0.78 µM
Nc1ccn([C@H]2CC[C@@H](CO)O2)c(=O)n1 | cytopathic effect / MTT |  | IIIB | MT-4 |  | 0.042 µg/mL
Cc1ncnc(C)c1C(=O)N1CCC(C)(N2CCN([C@@H](Cc3ccccc3)c3ccc(C(F)(F)F)cc3)[C@@H](C)C2)CC1 |  |  | 301657 Clinical isolates | PBMC |  | 0.0006 µM
CCO/N=C(\c1ccc(Br)cc1)C1CCN(C2(C)CCN(C(=O)c3c(C)cc[n+]([O-])c3C)CC2)CC1 | p24 / ELISA |  | BaL | PBMC |  | 0.094 µM
CC(C)(C)NC(=O)[C@@H]1C[C@@H]2CCCC[C@@H]2CN1C[C@@H](O)[C@H](Cc1ccccc1)NC(=O)[C@H](CC(N)=O)NC(=O)c1ccc2ccccc2n1 | cytopathic effect / MTT |  | IIIB | MT-4 |  | 0.0086 µg/mL
O=C(O)c1cccc(CCCC2(O)CCN(C[C@H]3CN(CC4CCCCC4)C[C@@H]3c3ccccc3)CC2)c1 | β-galactosidase |  | BaL | HeLa |  | >1 µM
Nc1nc2c(ncn2[C@H]2OC[C@@](F)(C=CP(=O)(O)O)[C@H]2F)c(=O)[nH]1 | MTT |  | LAI | PBMC |  | 95 µM
Cc1ccnc2c1NC(=O)c1cccnc1N2C1CC1 | p24 / ELISA |  | BaL | PBMC |  | 0.127 µM
COC(=O)[C@H](C)NP(=O)(OC[C@@H]1O[C@H](n2ccc(N)nc2=O)CS1)Oc1ccccc1 | antigen |  | BaL | MM + M/M |  | 0.18 µM
C=C(C)C12C[C@@H](C)[C@@]3(OO1)[C@H]([C@H]2O/C=C/C=C/CCCCCCCCC)[C@@H]1O[C@]1(CO)[C@@H](O)[C@]1(O)C(=O)C(C)=C[C@H]13 | p24 / ELISA |  | NL4-3 | MT-4 |  | 0.0058 µM
CCOCn1c(Cc2ccccc2)c(C(C)C)c(=O)[nH]c1=O | cytopathic effect / MTT |  | IIIB | MT-4 |  | 0.06 µM
CCCCCc1ccc(-c2cc3cn(C/C=C/C(O)CO)c(=O)nc3o2)cc1 | RT activity |  | LAI | PBMC |  | >100 µM
Nc1ccn([C@H]2S[C@@H](CO)C=C2F)c(=O)n1 |  |  | 3TC-resistant (RT M184V) | PBMC | RT-M184V | >100 µM
CC(C)Nc1cccnc1N1CCN(C(=O)c2cc3cc(NS(C)(=O)=O)ccc3[nH]2)CC1 | RT activity |  | Group O isolate | PBMC |  | 31 µM
Cc1cn([C@H]2C[C@H](N=[N+]=[N-])[C@@H](CO)O2)c(=O)[nH]c1=O | p24 |  | HXB2 | PBMC |  | 0.26 µM
CC(C)CN(C[C@@H](O)[C@H](Cc1ccccc1)NC(=O)[C@H](CC(N)=O)NC(=O)c1ccc2ccccc2n1)C(=O)NC(C)(C)C | RT activity |  | MN | MT-2 |  | 0.273 µM
CC(C)C[C@@H]1[C@H](O)[C@@H](O)[C@@H](CC(C)C)N(CC2CC2)C(=O)N1CC1CC1 | hybridisation |  | RF | MT-2 |  | >10 µM
C=C(C)C12C[C@@H](COCc3ccccc3)[C@@]3(OO1)[C@@H]1[C@H]2OCCCCCCC[C@@H](C)[C@H]2[C@H](C)C(=O)[C@@](O)([C@H](O)[C@@]4(CO)O[C@@H]14)[C@@H]23 | p24 / ELISA |  | NL4-3 | MT-4 |  | 0.0017 µM
Cc1ccnc2c1NC(=O)c1cccnc1N2C1CC1 | cytopathic effect / MTT |  | IIIB | MT-4 |  | 0.047 µg/mL
N#CN=C1N(Cc2ccc3ccccc3c2)[C@H](Cc2ccccc2)[C@H](O)[C@@H](O)[C@@H](Cc2ccccc2)N1Cc1ccc2ccccc2c1 | hybridisation |  | RF | MT-2 |  | >79 µM
C=C(C)C12C[C@@H](COCc3ccccc3)[C@@]3(OO1)[C@@H]1[C@H]2OCCCCCCC[C@H](C)[C@@H]2[C@@H]3C3(O[C@]2(C)OC3=O)[C@H](O)[C@@]2(CO)O[C@@H]12 | p24 / ELISA |  | NL4-3 | MT-4 |  | 0.091 µM
CC(C)C[C@@H]1[C@H](O)[C@@H](O)[C@@H](CC(C)C)N(Cc2ccccc2)C(=O)N1Cc1ccccc1 | hybridisation |  | RF | MT-2 |  | >10 µM

The first 4 rows once more:

smiles | read by | setting | strain or isolate | cell line | mutations | value
Nc1ncnc2c1ncn2[C@H]1OC[C@@](F)(C=CP(=O)(O)O)[C@H]1F | MTT |  | LAI | PBMC |  | 90 µM
CC(C)(C)NC(=O)[C@@H]1C[C@@H]2CCCC[C@@H]2CN1C[C@@H](O)[C@H](Cc1ccccc1)NC(=O)[C@H](CC(N)=O)NC(=O)c1ccc2ccccc2n1 | RT activity |  | Subtype B isolate | PBMC |  | 0.019 µM
Cc1c(O)cccc1C(=O)N[C@@H](CSc1ccccc1)[C@H](O)CN1C[C@H]2CCCC[C@H]2C[C@H]1C(=O)NC(C)(C)C | cytopathic effect / MTT |  | IIIB | MT-4 |  | 0.024 µg/mL
Nc1ccn([C@H]2O[C@@H](CO)C=C2F)c(=O)n1 |  |  | xxBRU | PBMC |  | 2.1 µM